Measurements reported in article PMC12797228 (ACS Infectious Diseases, 2025).
Read-outs that look alike come from different tables or passages of the source.

By UniProt entry, the sequences of proteins in these tests, tags left out. Where a name states a change or a piece, a line headed by the entry shows the natural chain unless it says otherwise. Residues count along the entry.
UniProt A0A6H3AG07, 1-807: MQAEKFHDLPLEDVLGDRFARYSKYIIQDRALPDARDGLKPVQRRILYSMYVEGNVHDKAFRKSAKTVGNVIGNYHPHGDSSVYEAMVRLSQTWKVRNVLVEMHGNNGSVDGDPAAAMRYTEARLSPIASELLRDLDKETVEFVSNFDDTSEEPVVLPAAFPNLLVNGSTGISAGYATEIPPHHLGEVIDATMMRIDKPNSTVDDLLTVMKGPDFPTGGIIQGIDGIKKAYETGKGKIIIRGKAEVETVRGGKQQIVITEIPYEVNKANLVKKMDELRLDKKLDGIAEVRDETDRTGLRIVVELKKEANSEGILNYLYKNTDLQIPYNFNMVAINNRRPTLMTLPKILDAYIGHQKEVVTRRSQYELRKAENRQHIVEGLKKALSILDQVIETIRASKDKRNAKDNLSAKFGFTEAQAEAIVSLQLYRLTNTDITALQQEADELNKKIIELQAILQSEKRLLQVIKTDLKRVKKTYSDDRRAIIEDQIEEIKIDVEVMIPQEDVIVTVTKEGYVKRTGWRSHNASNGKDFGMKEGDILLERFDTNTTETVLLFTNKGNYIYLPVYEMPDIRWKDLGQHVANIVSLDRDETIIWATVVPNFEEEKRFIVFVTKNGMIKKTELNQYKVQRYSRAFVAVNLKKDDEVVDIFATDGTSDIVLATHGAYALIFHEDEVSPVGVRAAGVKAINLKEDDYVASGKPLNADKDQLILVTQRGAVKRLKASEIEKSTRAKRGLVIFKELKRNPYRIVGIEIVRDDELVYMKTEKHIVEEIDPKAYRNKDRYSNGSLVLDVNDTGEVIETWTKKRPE
UniProt A0AAC8SCF4, 1-654: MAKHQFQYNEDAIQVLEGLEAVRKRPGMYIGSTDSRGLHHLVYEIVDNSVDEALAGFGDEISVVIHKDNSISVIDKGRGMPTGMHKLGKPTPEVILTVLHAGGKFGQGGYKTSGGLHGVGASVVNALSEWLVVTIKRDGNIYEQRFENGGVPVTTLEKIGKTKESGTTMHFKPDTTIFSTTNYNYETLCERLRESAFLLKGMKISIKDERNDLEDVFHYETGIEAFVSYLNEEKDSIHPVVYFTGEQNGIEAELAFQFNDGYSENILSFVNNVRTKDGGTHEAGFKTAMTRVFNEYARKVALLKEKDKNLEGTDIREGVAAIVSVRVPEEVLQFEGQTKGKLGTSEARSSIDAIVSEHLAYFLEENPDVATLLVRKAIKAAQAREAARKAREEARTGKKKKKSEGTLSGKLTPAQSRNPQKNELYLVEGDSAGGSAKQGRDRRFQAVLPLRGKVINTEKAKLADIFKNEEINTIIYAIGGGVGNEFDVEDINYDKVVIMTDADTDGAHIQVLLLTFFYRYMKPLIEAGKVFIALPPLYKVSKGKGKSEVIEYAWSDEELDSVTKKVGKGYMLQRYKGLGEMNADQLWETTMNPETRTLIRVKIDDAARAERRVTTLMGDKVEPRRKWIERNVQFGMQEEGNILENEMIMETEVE
UniProt A0A6H3A7B1, 1-823: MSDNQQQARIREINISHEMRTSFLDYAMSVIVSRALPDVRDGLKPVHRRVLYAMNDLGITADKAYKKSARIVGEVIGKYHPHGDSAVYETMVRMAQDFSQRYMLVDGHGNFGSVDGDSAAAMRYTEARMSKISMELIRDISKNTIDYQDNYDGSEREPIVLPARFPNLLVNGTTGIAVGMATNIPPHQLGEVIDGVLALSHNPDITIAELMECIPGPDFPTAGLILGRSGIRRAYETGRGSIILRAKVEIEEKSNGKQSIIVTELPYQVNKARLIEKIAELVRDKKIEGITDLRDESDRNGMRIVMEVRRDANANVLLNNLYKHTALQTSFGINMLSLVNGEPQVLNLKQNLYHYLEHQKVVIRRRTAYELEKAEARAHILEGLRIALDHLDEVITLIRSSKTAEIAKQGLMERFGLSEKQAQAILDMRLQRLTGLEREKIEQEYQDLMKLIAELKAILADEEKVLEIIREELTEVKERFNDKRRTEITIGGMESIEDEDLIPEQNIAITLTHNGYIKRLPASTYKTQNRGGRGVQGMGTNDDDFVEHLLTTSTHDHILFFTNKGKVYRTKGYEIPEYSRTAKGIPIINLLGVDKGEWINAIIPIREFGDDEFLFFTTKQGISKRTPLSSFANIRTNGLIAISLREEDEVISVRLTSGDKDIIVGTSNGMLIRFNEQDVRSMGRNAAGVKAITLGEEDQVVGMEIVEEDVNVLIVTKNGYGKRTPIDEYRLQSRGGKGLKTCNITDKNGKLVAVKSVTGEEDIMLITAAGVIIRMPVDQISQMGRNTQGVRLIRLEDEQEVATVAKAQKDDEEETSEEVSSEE
UniProt Q9X3Y6: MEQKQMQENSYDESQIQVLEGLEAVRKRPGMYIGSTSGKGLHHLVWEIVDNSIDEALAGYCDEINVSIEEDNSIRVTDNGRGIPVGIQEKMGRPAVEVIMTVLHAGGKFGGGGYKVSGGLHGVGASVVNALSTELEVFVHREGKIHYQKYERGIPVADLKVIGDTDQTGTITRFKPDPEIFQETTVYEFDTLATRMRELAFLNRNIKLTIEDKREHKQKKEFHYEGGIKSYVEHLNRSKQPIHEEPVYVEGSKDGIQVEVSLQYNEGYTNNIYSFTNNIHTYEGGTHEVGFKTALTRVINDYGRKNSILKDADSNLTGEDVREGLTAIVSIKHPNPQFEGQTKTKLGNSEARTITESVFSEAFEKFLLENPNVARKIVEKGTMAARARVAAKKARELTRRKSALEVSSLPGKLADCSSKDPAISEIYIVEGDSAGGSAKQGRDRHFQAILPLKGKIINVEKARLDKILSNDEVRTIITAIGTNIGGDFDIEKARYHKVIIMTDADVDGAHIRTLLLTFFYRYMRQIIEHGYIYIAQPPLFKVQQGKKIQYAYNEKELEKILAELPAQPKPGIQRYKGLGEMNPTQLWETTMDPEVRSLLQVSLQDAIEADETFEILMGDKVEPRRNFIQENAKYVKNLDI

Key:
[1] = target: wild-type B. anthracis topoisomerase IV (Bacillus anthracis, UniProt A0A6H3AG07+A0AAC8SCF4); experiment: biochemical
[2] = target: wild-type B. anthracis gyrase (Bacillus anthracis, UniProt A0A6H3A7B1+Q9X3Y6); experiment: biochemical; details: read-out: Adj-Max Cleavage, single-stranded DNA breaks
[3] = in vivo; details: female, BALB/c, mouse, po, 50 mg/kg
[4] = read-out: Adj-Max Cleavage, single-stranded DNA breaks

Row | SMILES | Adj-Max Cleavage, single-stranded DNA breaks [1] | Emax [1, 4] | Emax [2] | Emax ([1]; 10 min, read-out: Double-stranded DNA breaks, level induced (adjusted maximal cleavage)) | bioavailability [3]
1 | O=c1ccc2ncc(=O)n3c2n1C[C@H]3CN1CCC(NCc2cc3c(cn2)OCCC3)CC1 [Gepotidacin, gepotidacin, reference compound] | 5.3% | ~5% | ~20% | – | –
2 | COc1ccc2ncc(F)c(C[C@H](O)[C@H]3OC[C@H](NCc4cnc5c(n4)NC(=O)CO5)CO3)c2n1 [OSUAB-0284, 6-(((trans-2-((S)-2-(3-fluoro-6-methoxy-1,5-naphthyridin-4-yl)-1-hydroxyethyl)-1,3-dioxan-5-yl)amino)methyl)-2H-pyrazino[2,3-b][1,4]oxazin-3(4H)-one] | 12.4% | ~12% | ~25% | ~2% | 124%
